Pooled drug test results. Numbers come from NIAID ChemDB, via PubChem.

All rows: growth or infection tests; species: Toxoplasma gondii; endpoint: EC50

Blank or dashed fields: not listed here. ECn: concentration that inhibits the pathogen or its effect by n%. Lines come from different laboratories, so protocols vary.

| compound | strain | cells | method | result |
|---|---|---|---|---|
| O=C1C(c2c(O)[nH]c3ccccc23)=Nc2ccccc21 | ATCC 50839 | HFF |  | >320 µg/mL |
| CC(C)=CCCc1ccc2c(c1)C(=O)C=C(N1CCCC1)C2=O | RH (type I) |  | ELISA | 173 µM |
| CCCN(CCC)c1c([N+](=O)[O-])cc(C(F)(F)F)cc1[N+](=O)[O-] | Ethalfluralin-resistant |  |  | 3 µM |
| CC1=C(c2nc3ccccc3s2)O[C@@H]2O[C@]3(C)CC[C@H]4[C@H](C)CC[C@@H]1[C@@]24OO3 |  | HFF | β-galactosidase | 1 µM |
| CC1=C(C(=O)NCc2cc(F)cc(F)c2)OC2OC3(C)CC[C@H]4[C@H](C)CC[C@@H]1[C@@]24OO3 | 2F | HFF | β-galactosidase | 0.47 µM |
| CC(=C\Cc1ccccc1)/C=C(\C)C[C@H](C)C[C@]1(C)C[C@@]2(C)OC(=O)C[C@H]2OO1 | RH | HFF |  | 0.064 µM |
| CO[C@@H]1[C@@H](O[C@@H]2O[C@H](C)[C@@H](O[C@H]3C[C@@](C)(O)[C@@H](O)[C@H](C)O3)[C@H](N(C)C)[C@H]2O)[C@@H](CC=O)C[C@@H](C)[C@@H](O[C@H]2CC[C@H](N(C)C)[C@H](C)O2)/C=C/C=C/C[C@@H](C)OC(=O)C[C@H]1O |  |  |  | <3 µg/mL |
| CCCCCCCCN(CC1=C(O)c2ccccc2C(=O)C1=O)Cc1ccccc1 | PLK |  |  | 3 µM |
| Oc1[nH]c2ccccc2c1/C=N/N=C/c1ccco1 |  |  | MTS | 19.7 µM |
| CC1=C(C=O)O[C@@H]2O[C@]3(C)CC[C@H]4[C@H](C)CC[C@@H]1[C@@]24OO3 |  | HFF | β-galactosidase | 1 µM |
| CC[C@H](C)[C@H]1O[C@]2(CC[C@@H]1C)C[C@@H]1C[C@@H](C/C=C(\C)C(O[C@H]3C[C@H](OC)[C@@H](O[C@H]4C[C@H](OC)[C@@H](O)[C@H](C)O4)[C@H](C)O3)[C@@H](C)/C=C/C=C3\CO[C@@H]4[C@H](O)C(C)=C[C@@H](C(=O)O1)[C@]34O)O2 | RH |  | ELISA | 0.27 µg/mL |
| O=Nc1c(-c2c(O)[nH]c3cc(Cl)ccc23)[nH]c2ccccc12 | ATCC 50839 | HFF |  | 0.06 µg/mL |
| CC1=C(C(=O)NCc2ccc(F)cc2)OC2OC3(C)CC[C@H]4[C@H](C)CC[C@@H]1[C@@]24OO3 | 2F | HFF | β-galactosidase | 0.65 µM |
| O=C1C(=O)c2ccccc2C(O)=C1C1CCC(c2ccc(Cl)cc2)CC1 | RH (type I) |  | ELISA | 16.51 µM |
| CCCCCCCc1c(C)[nH]c2cc(OC)ccc2c1=O | 2F |  | absorbance | 0.000003 µM |
| O=C1C(c2c(O)[nH]c3ccc(F)cc23)=Nc2ccccc21 | ATCC 50839 | HFF |  | >320 µg/mL |
| Nc1ccc(S(=O)(=O)Nc2ncccn2)cc1 | RH (type I) |  | ELISA | 39.63 µM |
| O=Nc1c(-c2c(O)[nH]c3ccc(S(=O)(=O)O)cc23)[nH]c2ccccc12 | ATCC 50839 | HFF |  | >320 µg/mL |
| CC1=C(C(=O)NCc2ccc(F)c(F)c2)OC2OC3(C)CC[C@H]4[C@H](C)CC[C@@H]1[C@@]24OO3 | 2F | HFF | β-galactosidase | 0.34 µM |

A second listing of 2 rows from above:

{"compound": "O=C1C(=O)c2ccccc2C(O)=C1C1CCC(c2ccc(Cl)cc2)CC1", "strain": "RH (type I)", "method": "ELISA", "result": "16.51 µM"}
{"compound": "CCCCCCCc1c(C)[nH]c2cc(OC)ccc2c1=O", "strain": "2F", "method": "absorbance", "result": "0.000003 µM"}